Measurements reported in PubChem BioAssay AID624099 (ICCB-Longwood, 2012).
Test: 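Knock-downs relieving repression by E2 of an HPV18 LCR luciferase reporter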 (primary screen). Cells: human C33A cervical carcinoma cells (HPV-negative) stably expressing BPV1 E2 and an HPV18 LCR luciferase reporter. Knock-down reagent: siRNA pool against human genes, 40 nM. Duration: 72 h. Measurement: 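HPV18 LCR reporter light per well, converted to plate-wise z-scores that exclude control wells, and averaged over triplicate plates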. Direction: mean z-score and z-score: higher = stronger reporter signal, weaker E2 silencing. Rule for the call: 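Mean z ≥ 2 together with z ≥ 2 in two or more of the three replicates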.
The deposit covers about 21,000 reagents; this is an unselected part. In the full data, 497 (2.4%) got an active call. 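Higher z means weaker E2 silencing; only reporter increases were scored, and knock-downs that hurt cell survival may mask genuine repressor factors.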 No sequences are given here.

{"target gene": "LOC401182 (retired record)", "mean z-score": -0.18, "z-score, replicate A": 0.02, "z-score, replicate B": -0.21, "z-score, replicate C": -0.34, "call": "inactive"}
{"target gene": "SNX29P1", "mean z-score": -0.79, "z-score, replicate A": -1.14, "z-score, replicate B": -0.86, "z-score, replicate C": -0.38, "call": "inactive"}
{"target gene": "TERB2", "mean z-score": -0.61, "z-score, replicate A": -1.18, "z-score, replicate B": -0.64, "z-score, replicate C": -0.01, "call": "inactive"}
{"target gene": "CASP1", "mean z-score": 0.73, "z-score, replicate A": 1.02, "z-score, replicate B": 0.61, "z-score, replicate C": 0.55, "call": "inactive"}
{"target gene": "TSG101", "mean z-score": 1.52, "z-score, replicate A": 1.4, "z-score, replicate B": 1.74, "z-score, replicate C": 1.43, "call": "inactive"}
{"target gene": "PAGE5", "mean z-score": -1.39, "z-score, replicate A": -1.65, "z-score, replicate B": -1.58, "z-score, replicate C": -0.93, "call": "inactive"}

The list goes on (2 carried over from the part before).
{"target gene": "TSG101", "mean z-score": 1.52, "z-score, replicate A": 1.4, "z-score, replicate B": 1.74, "z-score, replicate C": 1.43, "call": "inactive"}
{"target gene": "PAGE5", "mean z-score": -1.39, "z-score, replicate A": -1.65, "z-score, replicate B": -1.58, "z-score, replicate C": -0.93, "call": "inactive"}
{"target gene": "LOC388814 (retired record)", "mean z-score": -1.11, "z-score, replicate A": -1.12, "z-score, replicate B": -0.76, "z-score, replicate C": -1.44, "call": "inactive"}
{"target gene": "NDUFB7", "mean z-score": -0.73, "z-score, replicate A": -0.78, "z-score, replicate B": -0.7, "z-score, replicate C": -0.71, "call": "inactive"}
{"target gene": "VIM", "mean z-score": -0.93, "z-score, replicate A": -0.93, "z-score, replicate B": -0.96, "z-score, replicate C": -0.9, "call": "inactive"}
{"target gene": "KCNV1", "mean z-score": -0.09, "z-score, replicate A": 0.22, "z-score, replicate B": -0.2, "z-score, replicate C": -0.27, "call": "inactive"}
{"target gene": "LOC400852 (retired record)", "mean z-score": 0.01, "z-score, replicate A": 0.1, "z-score, replicate B": -0.12, "z-score, replicate C": 0.06, "call": "inactive"}
{"target gene": "SPOCD1", "mean z-score": -0.09, "z-score, replicate A": -0.29, "z-score, replicate B": -0.11, "z-score, replicate C": 0.14, "call": "inactive"}
